{"source": "patent US20250082761A1", "about": "“DUAL-TARGETED RNA POLYMERASE INHIBITORS: CONJUGATES OF BENZOXAZINO- AND SPIRO-RIFAMYCINS WITH N ALPHA-AROYL-N-ARYL-[…]” (priority 2021, published 2025)", "assay_type_in_all_cases": "cell-based, Mycobacterium tuberculosis", "key": {"[1]": {"test_system": "rifampin-resistant M. tuberculosis 10571 (rpoB-D′516′V)", "test": "Microplate Alamar Blue MIC assay, isolate 10571", "settings": "isolate 10571, rpoB-D′516′V"}, "[2]": {"test_system": "rifampin-resistant M. tuberculosis 4457 (rpoB-H′526′Y)", "test": "Microplate Alamar Blue MIC assay, isolate 4457", "settings": "isolate 4457, rpoB-H′526′Y"}, "[3]": {"test_system": "rifampin-resistant M. tuberculosis 20626 (rpoB-H′526′D)", "test": "Microplate Alamar Blue MIC assay, isolate 20626", "settings": "isolate 20626, rpoB-H′526′D"}, "[4]": {"test_system": "rifampin-resistant M. tuberculosis 10545 (rpoB-S′531′L)", "test": "Microplate Alamar Blue MIC assay, isolate 10545", "settings": "isolate 10545, rpoB-S′531′L"}}, "data": [{"smiles": "COC1C=COC2(C)Oc3c(C)c(O)c4c(c3C2=O)C2=NC3(CCN(c5ccc(F)cc5NC(=O)C(Cc5ccccc5)NC(=O)c5ccccc5F)CC3)NC2=C(NC(=O)C(C)=CC=CC(C)C(O)C(C)C(O)C(C)C(O)C1C)C4=O", "note": "(stereo not shown)", "values": [{"measurement": "antibacterial activity rifampin-resistant M. tuberculosis 10571 (rpoB-D′516′V) MIC", "setting": "[1]", "value": 0.040, "unit": "µg/mL"}, {"measurement": "antibacterial activity rifampin-resistant M. tuberculosis 4457 (rpoB-H′526′Y) MIC", "setting": "[2]", "value": 0.20, "unit": "µg/mL"}, {"measurement": "antibacterial activity rifampin-resistant M. tuberculosis 20626 (rpoB-H′526′D) MIC", "setting": "[3]", "value": 0.20, "unit": "µg/mL"}, {"measurement": "antibacterial activity rifampin-resistant M. tuberculosis 10545 (rpoB-S′531′L) MIC", "setting": "[4]", "value": 0.20, "unit": "µg/mL"}]}]}
